This is an account of results in paper PMC2666729.

The subject of data set [1] is P. aeruginosa topoisomerase I (PAT), type IB (Pseudomonas aeruginosa UCBPP-PA14). As to the kind of experiment: EMSA. The following applies: recombinant protein, label: 5'-32P on top strand. In general terms: In EMSA bound probe runs differently from free probe, usually more slowly.
The test system of data set [2] is PAT Y292F (Pseudomonas aeruginosa UCBPP-PA14). Briefly: EMSA. The following applies: recombinant protein, label: 5'-32P on top strand.

The exact form of at least one protein or probe is not confirmed. For some assays here: A negative result means that nothing was seen under these conditions. For some assays here: At least one verdict was read from the data and is not stated in words by the source.

For the sequence “CCTAGGCTACACCTACTCTTTGTAAGAATTAAGCTTC (double strand) [37 bp no loops (perfect duplex)]”, in data set [1] (no MgCl2, no discrete complex up to 712 fmol PAT, aggregates marked, EMSA: 50 fmol DNA in 20 ul, 50 mM Tris pH 8.0, 2.5 mM MgCl2 (omitted in Fig. 9B), 0.1 mM EDTA, 0.67 M NaCl, 8-32% glycerol (varies by lane), 1 h at 37 C), the binding result is “no binding”.

On to “CCTAGGCTACACCTACTCTTTGTAAGAATTAAGCTTC / GAAGCTTAATTCAAACAAAGAGTTCGTGTAGCCTAGG [37 bp loops]”, for which the binding result in data set [1] (2.5 mM MgCl2, more stable than perfect duplex, EMSA: 50 fmol DNA in 20 ul, 50 mM Tris pH 8.0, 2.5 mM MgCl2 (omitted in Fig. 9B), 0.1 mM EDTA, 0.67 M NaCl, 8-32% glycerol (varies by lane), 1 h at 37 C) is on record as “binds”; in data set [2] (2.5 mM MgCl2, 0.53-18.8 pmol protein) it was “binds”. On to “CGTGTCGATTCCGACGTCCCTTGCATTTATCAATTAT (double strand) [37 bp VacSeq]”, for which the binding result in data set [1] (2.5 mM MgCl2, two complexes plus aggregates, MgCl2 has no effect on complex formation) is listed as “binds”; in data set [2], “binds”.
